One test deals with α3β2 nAChR (Rattus norvegicus, UniProt P04757+P12390). The test is described as follows: Inhibition of ACh-evoked current amplitude, two electrode voltage clamp, Xenopus oocytes, α3β2. The following applies: read-out: IC50 for inhibition of ACh-evoked current, 100 μM ACh for 2 s, 5 min incubation of peptide, holding potential -80 mV, ND96 pH 7.4, 20 – 23°C, peak current, mean ± SEM, n = 4–7. A general note: Two-electrode voltage clamp holds a large cell at a set potential and records current.

Protein sequences, listed by entry. Tags and fused reporters are not part of them. Residues count along the entry.
UniProt P04757, 26-499 limits assumed: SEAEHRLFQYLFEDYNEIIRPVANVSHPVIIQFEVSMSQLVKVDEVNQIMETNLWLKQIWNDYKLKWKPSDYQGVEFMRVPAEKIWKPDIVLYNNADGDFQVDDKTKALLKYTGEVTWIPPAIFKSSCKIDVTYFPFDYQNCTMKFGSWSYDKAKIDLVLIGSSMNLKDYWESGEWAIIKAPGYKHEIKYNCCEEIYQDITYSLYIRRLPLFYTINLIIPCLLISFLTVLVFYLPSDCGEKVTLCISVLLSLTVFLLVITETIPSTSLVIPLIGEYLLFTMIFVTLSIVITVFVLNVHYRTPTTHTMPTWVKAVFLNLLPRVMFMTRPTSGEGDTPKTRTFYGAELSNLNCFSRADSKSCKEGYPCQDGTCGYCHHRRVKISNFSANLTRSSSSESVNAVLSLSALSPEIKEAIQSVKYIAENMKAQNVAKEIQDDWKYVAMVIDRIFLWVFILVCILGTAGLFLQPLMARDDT
UniProt P12390, 25-500 limits assumed: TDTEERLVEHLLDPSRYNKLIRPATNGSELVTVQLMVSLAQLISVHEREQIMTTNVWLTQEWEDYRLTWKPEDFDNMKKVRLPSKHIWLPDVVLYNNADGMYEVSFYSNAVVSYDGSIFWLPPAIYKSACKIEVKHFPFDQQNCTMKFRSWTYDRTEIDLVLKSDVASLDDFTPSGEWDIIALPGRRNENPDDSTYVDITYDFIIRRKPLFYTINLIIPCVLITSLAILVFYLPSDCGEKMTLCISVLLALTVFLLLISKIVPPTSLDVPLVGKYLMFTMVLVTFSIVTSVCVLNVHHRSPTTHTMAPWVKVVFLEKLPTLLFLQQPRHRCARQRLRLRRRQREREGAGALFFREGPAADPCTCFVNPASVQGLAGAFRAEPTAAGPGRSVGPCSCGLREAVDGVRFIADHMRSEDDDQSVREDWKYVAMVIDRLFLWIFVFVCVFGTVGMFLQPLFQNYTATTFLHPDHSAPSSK
UniProt P12392, 21-495 limits assumed: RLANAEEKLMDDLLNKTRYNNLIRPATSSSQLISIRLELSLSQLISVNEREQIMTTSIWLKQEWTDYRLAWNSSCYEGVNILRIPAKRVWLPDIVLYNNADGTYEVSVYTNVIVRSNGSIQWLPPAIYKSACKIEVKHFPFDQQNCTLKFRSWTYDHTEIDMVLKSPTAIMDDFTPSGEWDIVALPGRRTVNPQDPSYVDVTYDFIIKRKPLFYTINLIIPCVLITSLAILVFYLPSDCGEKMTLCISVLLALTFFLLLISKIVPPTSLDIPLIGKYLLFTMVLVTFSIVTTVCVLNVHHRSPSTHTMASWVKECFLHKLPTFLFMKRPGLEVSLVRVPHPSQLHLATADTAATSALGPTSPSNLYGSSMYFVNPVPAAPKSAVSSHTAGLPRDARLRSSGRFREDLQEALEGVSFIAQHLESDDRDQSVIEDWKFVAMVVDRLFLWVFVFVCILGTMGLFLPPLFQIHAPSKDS

The target in another test is α3β4 nAChR (Rattus norvegicus, UniProt P04757+P12392). The test is described as follows: Inhibition of ACh-evoked current amplitude, two electrode voltage clamp, Xenopus oocytes, α3β4. The following applies: read-out: IC50 for inhibition of ACh-evoked current, 100 μM ACh for 2 s, 5 min incubation of peptide, holding potential -80 mV, ND96 pH 7.4, 20 – 23°C, peak current, mean ± SEM, n = 4–7.

Structures are written as SMILES.

A word on the IC50: it is the concentration that gives 50% inhibition.

For `CC(C)C[C@@H]1NC(=O)[C@H](C(C)C)NC(=O)[C@H](C)NC(=O)[C@@H]2CSSC[C@H](NC(=O)CN)C(=O)N[C@@H](CSSC[C@@H](C(N)=O)NC(=O)[C@H](Cc3ccc(O)cc3)NC1=O)C(=O)N[C@@H](CO)C(=O)N[C@@H]([C@@H](C)O)C(=O)N1CCC[C@H]1C(=O)N1CCC[C@H]1C(=O)N2`, the figures for the IC50 on α3β2 nAChR and on α3β4 nAChR were 4.8 nM and 59.1 nM, respectively.

The values are drawn from article PMC1865545, “Structure of α-conotoxin BuIA: influences of disulfide connectivity on structural dynamics” (2007).
